Measured values from several laboratories, pooled; numbers as filed in NIAID ChemDB.

Shared fields: whole-cell or culture tests

An empty or dashed field is not shown. Inhibition is in % at the dose shown (toxicity tests: loss of growth or viability). ECn is the concentration giving n% inhibition of infection, replication or growth. A number after MIC or MFC names an inhibition level or a share of isolates. Lines come from different laboratories, so protocols vary.

compound | species | cell line | read-out | mutations | read by | dose | strain | result
CO/N=C1\CN(c2nc3c(cc2F)c(=O)c(C(=O)O)cn3C2CC2)CC1CN | Streptococcus pneumoniae | - | MIC50 | - | - | - | 94 isolates ciprofloxacin-susceptible | 0.031 µg/mL
CC[C@H](O)C1=C[C@@H](n2cnc3c(N)ncnc32)[C@H](O)[C@@H]1O | Tacaribe virus | VERO | EC50 | - | cytopathic effect | - | - | 50 µg/mL
CC[C@H]1OC(=O)[C@@](C)(F)C(=O)[C@H](C)[C@@H](O[C@@H]2O[C@H](C)C[C@H](N(C)C)[C@H]2O)[C@@]2(C)C[C@@H](C)C(=NC(C)=O)[C@H](C)[C@@H](OC/C(=N\OCC#Cc3cccc(N)n3)CO2)[C@]1(C)O | Streptococcus pneumoniae | - | MIC | - | - | - | 7701 (erythromycin A-resistant) | 0.13 µg/mL
CC(=O)ONc1ccc(S(=O)(=O)N(Cc2ccccc2)C[C@@H](O)[C@H](Cc2ccccc2)NC(=O)Cc2c[nH]c3ccccc23)cc1 | SIV | CEM | EC50 | - | MTT | - | - | 4.8 µM
Cc1c(N)c(F)cc2c(=O)c(C(=O)O)cn(-c3cc(N)c(F)cc3F)c12 | Enterococcus faecium | - | MIC | - | - | - | W1140 | 4 µg/mL
Nc1ncnc2c1ncn2[C@@H]1C=C(CO)[C@@H](O)[C@H]1O | Tacaribe virus | VERO | EC50 | - | cytopathic effect | - | - | 1.5 µg/mL
CCSC1NN=C(Cc2nc(C)n(C)n2)N1c1ccccc1 | Respiratory syncytial virus | - | MIC | - | - | - | - | 400 µg/mL
OC[C@@H]1CC[C@H](n2cnc3c(NC4CCCCCC4)nc(Cl)nc32)O1 | Maedi-visna virus | - | EC50 | - | cytopathic effect | - | - | 0.027 µM
Nc1nc2c(ncn2COC(CO)CO)c(=O)[nH]1 | Cytomegalovirus | HFF | inhibition | - | hybridisation | 30 µM | AD169 | 96%
CCNC/C=C\CNCCCCNCCCCNCC | Encephalitozoon cuniculi | - | EC50 | - | - | - | - | 745 µM
CC(C)CN(C[C@@H](O)[C@H](Cc1ccccc1)NC(=O)CCCc1c[nH]c2ccccc12)S(=O)(=O)c1ccc(Br)cc1 | SIV | CEM | EC50 | - | MTT | - | - | 8.9 µM
CC[C@H]1OC(=O)[C@@](C)(F)C(=O)[C@H](C)[C@@H](O[C@@H]2O[C@H](C)C[C@H](N(C)C)[C@H]2O)[C@@]2(C)C[C@@H](C)C(=O)[C@H](C)[C@@H](OC/C(=N\OCc3ccc(-n4cccn4)nc3)CO2)[C@]1(C)O | Streptococcus pneumoniae | - | MIC | - | - | - | 700906 (erythromycin A-resistant) | <0.06 µg/mL
Nc1nc2c(ncn2COC(CO)CO)c(=O)[nH]1 | Guinea pig cytomegalovirus | GPE | EC50 | - | plaque count | - | - | 61 µM
Nc1nc2c(ncn2COC(CO)CO)c(=O)[nH]1 | Human cytomegalovirus | - | EC90 | - | plaque count | - | VR3480 (ganciclovir-resistant) | 75 µM
O=C(Nc1ccc(NC(=S)Nc2cc(C(F)(F)F)cc(C(F)(F)F)c2)cc1)c1csnn1 | Simian cytomegalovirus | HFF | EC50 | - | virus yield | - | Colburn | >20 µM
CCCCCC/C=C\CNCCCCNC/C=C\CNCC | Encephalitozoon cuniculi | - | EC50 | - | - | - | - | 600 µM
C#C[C@H](O)C1=C[C@@H](n2cnc3c(N)ncnc32)[C@H](O)[C@@H]1O | Tacaribe virus | VERO | EC50 | - | cytopathic effect | - | - | >50 µg/mL
CCn1nc(CC(=O)NN=C(C)C)nc1C | Coxsackie virus | - | MIC | - | - | - | B4 | >400 µg/mL
Cn1nc(Cc2ccc(Cl)cc2)c2ccccc2c1=O | Cryptococcus neoformans | - | MIC80 | - | broth dilution | - | ATCC 32264 | 7.8 µg/mL
CCn1nc(CC(=O)N/N=C/c2ccco2)nc1C | Respiratory syncytial virus | - | MIC | - | - | - | - | >400 µg/mL
CC(=O)ONc1ccc(S(=O)(=O)N(CC(C)C)C[C@@H](O)[C@H](Cc2ccccc2)NC(=O)CCN2C(=O)c3ccccc3C2=O)cc1 | SIV | CEM | EC50 | - | MTT | - | - | 5.2 µM
Nc1ccc(Cn2cnc3c(Nc4cccc(F)c4)nc(C(F)(F)F)nc32)cc1 | Rhinovirus | M-HELA | EC50 | - | plaque count | - | Serotype 2 | 11 µM
OO | Aspergillus fumigatus | - | MIC99 | sakA deletion | agar | - | - | 4000 µM
CC[C@H]1OC(=O)[C@H](C)C(=O)[C@H](C)[C@@H](O[C@@H]2O[C@H](C)C[C@H](N(C)C)[C@H]2O)[C@@]2(C)C[C@@H](C)C(=NC(C)=O)[C@H](C)[C@@H](OC/C(=N/OCc3ccc(-c4cccc(N)n4)s3)CO2)[C@]1(C)O | Streptococcus pneumoniae | - | MIC | - | - | - | 49619 (erythromycin A-susceptible) | <0.06 µg/mL
OCCCCn1nncc1Cn1ncc2c(SCc3ccccc3)ncnc21 | Punta Toro virus | VERO | EC50 | - | - | - | - | >400 µg/mL
CCNCCCCNCCCCNCCCCNCCCCNCC | Encephalitozoon cuniculi | - | EC50 | - | - | - | - | 42.5 µM
CCC | Influenza A virus | MDCK | EC50 | - | - | - | CHILE/1/83 (H1) | >500 µM
Cc1c(NC(=O)OC(C)(C)C)ccc2nc(N3CCC[C@H]3C(=O)N(C)CCc3ccncc3)oc(=O)c12 | Herpes simplex virus 1 | VERO | EC90 | - | plaque count | - | - | >12.5 µM
CC(=O)ONc1ccc(S(=O)(=O)N(CC(C)C)C[C@@H](O)[C@H](Cc2ccccc2)NC(=O)COc2ccc3ccccc3c2)cc1 | SIV | CEM | EC50 | - | MTT | - | - | 7.3 µM
OC[C@@H]1CC[C@H](n2cnc3c(NC4CC4)nc(Cl)nc32)O1 | Maedi-visna virus | - | EC50 | - | cytopathic effect | - | - | 0.15 µM
C[C@@H](c1ncncc1F)[C@](O)(Cn1cncn1)c1ccc(F)cc1F | Cryptococcus gattii | - | MIC | - | broth dilution | - | CBS 11807 | 0.5 µg/mL
CC(C)N=C(N)c1ccc2nc(-c3ccc4c(c3)Cc3cc(-c5nc6ccc(C(N)=NC(C)C)cc6[nH]5)ccc3-4)[nH]c2c1 | Candida albicans | - | MFC | - | - | - | Isolate 3028 fluconazole-resistant | 1.56 µg/mL
CCNCCCCNCCCCNCCCCNCCCCNCCCCNCCCCNCCCCNCCCCNCCCCNCC | Encephalitozoon cuniculi | - | EC50 | - | - | - | - | 0.63 µM
Cc1cn([C@H]2O[C@@H](CO)[C@H](O)[C@H]2F)c(=O)[nH]c1=O | Epstein-Barr virus | H-1 | EC90 | - | - | - | - | 5 µM
Cc1c(NCCO)c(F)cc2c(=O)c(C(=O)O)cn(-c3cc(N)c(F)cc3F)c12 | Staphylococcus aureus | - | MIC90 | - | - | - | 27 isolates | 0.03 µg/mL
CC(C)CN(C[C@@H](O)[C@H](Cc1ccccc1)NC(=O)CCCN1C(=O)c2ccccc2C1=O)S(=O)(=O)c1ccc(Br)cc1 | SIV | CEM | EC50 | - | MTT | - | - | 8.2 µM
Nc1ncnc2c1ncn2[C@@H]1C[C@H](S)[C@@H](O)[C@H]1O | Measles virus | CV-1 | EC50 | - | cytopathic effect | - | - | >100 µg/mL
CCCCCCCCCCCCCCCCOCCCOP(=O)(O)CO[C@H](CO)Cn1ccc(N)nc1=O | Rat cytomegalovirus | MRC-5 | EC50 | - | plaque count | - | - | 0.004 µM
OCCCCn1cc(Cn2ncc3c(SCc4ccccc4)ncnc32)nn1 | Punta Toro virus | VERO | EC50 | - | - | - | - | >400 µg/mL
CCn1nc(-c2ccc(Cn3ccc4ccccc43)cc2)nc1C | Reovirus | - | MIC | - | - | - | TYPE 1 | >80 µg/mL
Nc1ccn(C[C@@H](CO)OCP(=O)(O)O)c(=O)n1 | Guinea pig cytomegalovirus | MRC-5 | EC50 | - | plaque count | - | - | 0.31 µM
Cc1c(NC(C)C)c(F)cc2c(=O)c(C(=O)O)cn(-c3cc(N)c(F)cc3F)c12 | Enterococcus faecium | - | MIC | - | - | - | W1140 | 4 µg/mL
CC(=O)ONc1ccc(S(=O)(=O)N(CC(C)C)C[C@@H](O)[C@H](Cc2ccccc2)NC(=O)c2ccc(-c3ccc(Cl)cc3)o2)cc1 | SIV | CEM | EC50 | - | MTT | - | - | 7.6 µM
CCCCCCCCCCCCCCCCCCOCCOP(=O)(O)CO[C@H](CO)Cn1ccc(N)nc1=O | Guinea pig cytomegalovirus | MRC-5 | EC50 | - | plaque count | - | - | 0.0009 µM
C=CCc1ccc(O)c(OC)c1 | Candida albicans | - | MIC90 | - | turbidity | - | 3081 | 495 µg/mL
CCC(C)n1ncn(-c2ccc(N3CCN(c4ccc(OC[C@H]5CO[C@](Cn6cncn6)(c6ccc(Cl)cc6Cl)O5)cc4)CC3)cc2)c1=O | Aspergillus fumigatus | - | inhibition | - | broth dilution | 16 µg/mL | AF293 | 99.94%
Cc1cn([C@@H]2O[C@H](CO)[C@@H](O)[C@@H]2F)c(=O)[nH]c1=O | Epstein-Barr virus | H-1 | EC90 | - | - | - | - | 0.1 µM
CC[C@H]1OC(=O)[C@@](C)(F)C(=O)[C@H](C)[C@@H](O[C@@H]2O[C@H](C)C[C@H](N(C)C)[C@H]2O)[C@@]2(C)C[C@@H](C)C(=NC(C)=O)[C@H](C)[C@@H](OC/C(=N\OCc3cccc(C(N)=O)c3)CO2)[C@]1(C)O | Streptococcus pneumoniae | - | MIC | - | - | - | 700906 (erythromycin A-resistant) | 1 µg/mL
Fc1cccc(Cn2cnc3c(Nc4cccc(F)c4)nc(C(F)(F)F)nc32)c1 | Rhinovirus | M-HELA | EC50 | - | plaque count | - | Serotype 5 | 13 µM
CCNCCCCNC[C@H]1C[C@@H]1CNCCCCNCC | Encephalitozoon cuniculi | - | EC50 | - | - | - | - | 270 µM
Nc1ncnc2c1ncn2[C@@H]1CC[C@@H](O)[C@H]1O | Measles virus | CV-1 | EC50 | - | cytopathic effect | - | Chicago | <0.1 µg/mL
Cc1c(NC(=O)OC(C)(C)C)ccc2nc(N3CCCC[C@H]3C(=O)NCc3ccncc3)oc(=O)c12 | Herpes simplex virus 1 | VERO | EC90 | - | plaque count | - | - | >12.5 µM
OC[C@H]1O[C@@H](n2c(Br)nc3cc(Cl)c(Cl)cc32)[C@H](O)[C@@H]1O | Guinea pig cytomegalovirus | - | EC50 | - | - | - | - | 4.7 µM
NNC(=O)Cc1nc2n(n1)CCCCC2 | Respiratory syncytial virus | - | MIC | - | - | - | - | >400 µg/mL
CC(=O)ONc1ccc(S(=O)(=O)N(CC(C)C)C[C@@H](O)[C@H](Cc2ccccc2)NC(=O)CN2C(=O)c3ccccc3S2(=O)=O)cc1 | SIV | CEM | EC50 | - | MTT | - | - | 7.2 µM
Cc1c(NC(=O)OC(C)(C)C)ccc2nc(N(CCc3ccccc3)C(=O)N(C)CCc3cccnc3)oc(=O)c12 | Herpes simplex virus 1 | VERO | EC90 | - | plaque count | - | - | 5.1 µM
CNc1ncnc2c1cnn2Cc1cn(CCCCO)nn1 | Punta Toro virus | VERO | EC50 | - | - | - | - | >400 µg/mL
Nc1nc2c(ncn2COC(CO)CO)c(=O)[nH]1 | Cytomegalovirus | HEL | inhibition | - | - | 10 µM | - | 98%
CCc1nc(CC(=O)NN=C(C)C)nn1CC | Sindbis virus | - | MIC | - | - | - | - | >80 µg/mL
CC[C@H]1OC(=O)[C@@](C)(F)C(=O)[C@H](C)[C@@H](O[C@@H]2O[C@H](C)C[C@H](N(C)C)[C@H]2O)[C@@]2(C)C[C@@H](C)C(=NC(C)=O)[C@H](C)[C@@H](OC/C(=N\OCc3ccc(-n4cccn4)nc3)CO2)[C@]1(C)O | Streptococcus pneumoniae | - | MIC | - | - | - | 7701 (erythromycin A-resistant) | 0.25 µg/mL
COc1nc(=O)n([C@H]2C[C@H](O)[C@@H](CO)O2)cc1/C=C/Cl | Equine herpesvirus 1 | PRK | EC50 | - | cytopathic effect | - | Kentucky (type 1) | >200 µg/mL
C[C@@H]1C/C=C/C=C/C=C/C=C/[C@H](OC2O[C@H](C)[C@@H](O)[C@H](N)[C@@H]2O)CC2O[C@](O)(C[C@@H](O)C[C@H]3O[C@@H]3/C=C/C(=O)O1)C[C@H](O)[C@H]2C(=O)O | Aspergillus flavus | - | MIC90 | - | - | - | Species complex | 32 µg/mL
CC(N)C12CC3CC(CC(C3)C1)C2 | Influenza A virus | VERO | EC50 | - | ELISA | - | H3N2 A/NY/83/R6 | 21.5 µg/mL
C[C@@H](c1nc(-c2ccc(C#N)cc2)cs1)[C@](O)(Cn1cncn1)c1cc(F)ccc1F | Cryptococcus gattii | - | MIC50 | - | broth dilution | - | VG IIa | 0.031 µg/mL
CC[C@H]1OC(=O)[C@H](C)C(=O)[C@H](C)[C@@H](O[C@@H]2O[C@H](C)C[C@H](N(C)C)[C@H]2O)[C@@]2(C)C[C@@H](C)C(=NC(C)=O)[C@H](C)[C@@H](OC/C(=N\OCc3ccc(-c4cccc(N)n4)s3)CO2)[C@]1(C)O | Streptococcus pneumoniae | - | MIC | - | - | - | 7701 (erythromycin A-resistant) | 0.03 µg/mL
CC(=O)Nc1ccc(Cn2cnc3c(Nc4cccc(F)c4)nc(C(F)(F)F)nc32)cc1 | Rhinovirus | M-HELA | EC50 | - | plaque count | - | Serotype 1B | 0.4 µM
Nc1ncnc2c1ncn2[C@@H](C=O)O[C@@H](C=O)COP(=O)(O)OP(=O)(O)OP(=O)(O)O | SIV | GHOST | EC50 | - | luciferase | - | - | 71.5 µM
O=c1cnn(COCCO)c(=O)[nH]1 | Duck hepatitis B virus | Primary duck hepatocytes | inhibition | - | - | 10 µg/mL | - | 35%
Cc1cc(CCCCCOc2c(Cl)cc(C3=NCCO3)cc2Cl)on1 | Enterovirus | VERO | EC50 | - | plaque count | - | NANCY (CVB3) | >2.5 µg/mL
CCOP(=O)(O)CCC(CO)OCn1cnc2c(=O)[nH]c(N)nc21 | Guinea pig cytomegalovirus | MRC-5 | EC50 | - | plaque count | - | 22122 | 56 µg/mL
Nc1ncnc2c1ncn2[C@@H]1C[C@H](N)[C@@H](O)[C@H]1O | Measles virus | CV-1 | EC50 | - | cytopathic effect | - | CC | 30 µg/mL
CCC[C@H](O)C[C@@H]1CC[C@H](C)CCCCC(=O)N(C)[C@@H](Cc2ccc(OCCO)cc2)C(=O)O1 | Saccharomyces cerevisiae | - | MIC | - | - | - | ERG11 | 12.5 µg/mL